PubChem BioAssay AID1259414 | Drosophila RNAi Screening Center, 2018
Assay: 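Fly genes that alter Wolbachia amount inside host cells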 (primary screen). System: Drosophila JW18 cells infected with Wolbachia. Reagent: long dsRNA against Drosophila genes, 0.25 µg dsRNA per well of a 384-well plate. Timing: 5 days. Challenge: cells persistently infected with Wolbachia before knock-down; no added drug. Detection: 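Imaged fluorescence in situ signal for Wolbachia 23S rRNA per DAPI-counted host cell, given as a robust z-score within each plate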. Direction: Wolbachia per cell robust z: higher = more Wolbachia per host cell than the plate typical. Active means: 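Active if absolute robust z reaches 1.5 in two or more of three replicates, leaving out multi- or no-target dsRNAs, genes unexpressed in JW18 and A1 wells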.
In all, the deposit lists about 24,000 reagents; below is a random part of those that have a named target and a result. Of all reagents, about 1,210 (5%) got an active call. 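Inactive calls also include excluded dsRNAs with several or no targets, genes unexpressed in JW18, and well A1, regardless of score.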 Names joined by + are all predicted targets of the reagent.

| target gene | amplicon | Wolbachia per cell robust z, rep 1 | Wolbachia per cell robust z, rep 2 | Wolbachia per cell robust z, rep 3 | activity call |
| --- | --- | --- | --- | --- | --- |
| qin | DRSC14782 | -4.69 | -0.672 | -0.598 | inactive |
| qin | DRSC14785 | 0.425 | -0.937 | 0.27 | inactive |
| qin | DRSC41506 | -2.15 | 0.555 | 0.204 | inactive |
| CG17660 | DRSC00513 | -0.595 | -3.65 | -0.298 | inactive |
| BNIP3 | DRSC11761 | 0.111 | 1.17 | -0.769 | inactive |
| wcy | DRSC20132 | 1.49 | 0.949 | -0.812 | inactive |
| wcy | DRSC26455 | -1.74 | 0.924 | 0.97 | inactive |
| CG13744 | DRSC06415 | 0.222 | 0.921 | 0.151 | inactive |
| CG12213 | DRSC14478 | -0.128 | -0.764 | 0.853 | inactive |
| CG12213 | DRSC22109 | 0.112 | -1.75 | -0.544 | inactive |
| CG12213 | DRSC25474 | -0.498 | -7.64 | -1.05 | inactive |
| HipHop | DRSC10734 | -0.377 | -1.24 | -0.317 | inactive |
| CG13055 | DRSC09936 | 1.23 | 1.81 | 0.798 | inactive |
| CG13055 | DRSC25640 | 0.154 | 0.54 | 0.181 | inactive |
| Naus | DRSC06011 | -0.699 | 0.614 | -1.17 | inactive |
| Naus | DRSC06469 | 0.896 | 1.66 | 1.22 | inactive |
| Naus | DRSC23606 | 0.0474 | -1.67 | 1.15 | inactive |
| CG14321 | DRSC14800 | 1.37 | 0.182 | 1.08 | inactive |
| CG14321 | DRSC26935 | 0.491 | 1.23 | -0.112 | inactive |
| DhpD | DRSC12288 | -1.85 | -0.844 | -0.751 | inactive |
| Ect3 | DRSC15462 | -0.392 | 0.693 | 0.514 | inactive |
| Ect3 | DRSC25392 | 0.07 | -0.292 | 1.31 | inactive |
| Idua | DRSC02941 | 1.15 | 1.08 | -11.2 | inactive |
| Alg11 | DRSC11647 | -2.07 | 1.1 | 1.26 | inactive |
| CG17294 | DRSC02596 | 0.218 | 0.14 | -0.404 | inactive |
| CG42853 | DRSC40527 | 0.405 | 0.483 | 0.451 | inactive |
| Aduk | DRSC16451 | -0.731 | 1.4 | 1.05 | inactive |
| Aduk | DRSC29838 | -6.18 | -0.531 | 0.537 | inactive |
| Amy-d + Amy-p | DRSC24129 | -0.147 | 0.731 | -0.413 | inactive |
| ACXB | DRSC00845 | -0.246 | 0.169 | -4.69 | inactive |
| ACXB | DRSC26343 | 0.188 | 0.0126 | 0.732 | inactive |
| Pkc98E | DRSC16791 | 0.308 | -0.0654 | 0.249 | inactive |
| Pkc98E | DRSC28311 | -0.764 | -7.03 | -0.553 | inactive |
| IntS12 | DRSC15818 | -0.677 | -0.692 | -0.0104 | inactive |
| spag4 | DRSC02973 | 0.404 | -1.76 | 0.197 | inactive |
| Set1 | DRSC38775 | 3.51 | 2.09 | 3.51 | active |
| CG13041 | DRSC09922 | -2.7 | -1.73 | -0.223 | inactive |
| CG13041 | DRSC26793 | -0.27 | 1.26 | -0.541 | inactive |
| CR31562 | DRSC12273 | -0.955 | -0.16 | 0.785 | inactive |
| CR31562 | DRSC12274 | 0.217 | 1.05 | -0.557 | inactive |
| CG15546 | DRSC15084 | 0.904 | -1.32 | 0.567 | inactive |
| CG15546 | DRSC22831 | 1.05 | -1.32 | -0.903 | inactive |
| CG15546 | DRSC28899 | -0.33 | -0.642 | -0.154 | inactive |
| CG1701 | DRSC06641 | -0.0704 | 0.0111 | 0.0789 | inactive |
| CG10904 | DRSC04084 | -0.119 | 0.213 | 0.179 | inactive |
| Acp65Aa | DRSC09663 | -0.696 | 0.0662 | 0.523 | inactive |
| Acp65Aa | DRSC26708 | 1.16 | 0.467 | 0.484 | inactive |
| Bmcp | DRSC10808 | -0.0227 | -0.331 | 0.611 | inactive |
| Rab1 | DRSC16808 | 0.982 | 0.311 | 0.954 | inactive |
| Rab1 | DRSC29851 | -0.0887 | 0.486 | 3.24 | inactive |
| Npc2b | DRSC15464 | 1.22 | 0.918 | 0.76 | inactive |
| Phk-3 | DRSC04547 | -0.0553 | 1.4 | 0.104 | inactive |
| Phk-3 | DRSC41373 | 0.0321 | 0.617 | 0.346 | inactive |
| comm2 | DRSC10877 | -0.51 | 0.0481 | -0.436 | inactive |
| RpL13 | DRSC03416 | 1.89 | 1.18 | 0.433 | inactive |
| tun | DRSC05592 | -0.313 | -0.446 | 0.362 | inactive |
| tun | DRSC07127 | -0.849 | -0.347 | -2.6 | inactive |
| CG11127 | DRSC06043 | 0.548 | -4.68 | -1.52 | active |
| CG14395 | DRSC14852 | 0.584 | 0.162 | -1.11 | inactive |
| Obp19a | DRSC20487 | -0.149 | 0.145 | -1.08 | inactive |
| NdufA3 | DRSC18431 | -0.43 | 0.472 | -0.557 | inactive |
| CG6000 | DRSC15938 | -0.423 | 0.48 | 0.152 | inactive |
| CG3708 | DRSC18646 | -0.721 | -2.86 | -0.835 | inactive |
| Hn | DRSC11184 | -8.08 | -0.266 | -0.678 | inactive |
| CG3703 | DRSC18172 | 0.0673 | 0.277 | -0.641 | inactive |
| CG3703 | DRSC18173 | -5.04 | 0.547 | -0.718 | inactive |
| CG3703 | DRSC18643 | 0.105 | -3.94 | 0.152 | inactive |
| Obp99a | DRSC15303 | -1.34 | 0.0307 | 0.281 | inactive |

Part of the list above, set out differently.
target gene	amplicon	Wolbachia per cell robust z, rep 1	Wolbachia per cell robust z, rep 2	Wolbachia per cell robust z, rep 3	activity call
CG15546	DRSC22831	1.05	-1.32	-0.903	inactive
CG15546	DRSC28899	-0.33	-0.642	-0.154	inactive
CG1701	DRSC06641	-0.0704	0.0111	0.0789	inactive
CG10904	DRSC04084	-0.119	0.213	0.179	inactive
Acp65Aa	DRSC09663	-0.696	0.0662	0.523	inactive
Acp65Aa	DRSC26708	1.16	0.467	0.484	inactive
Bmcp	DRSC10808	-0.0227	-0.331	0.611	inactive
